The values that follow come from PMC11085872, “Structure-Based Design of Novel Thiazolone[3,2-a]pyrimidine Derivatives as Potent RNase H Inhibitors for HIV Therapy” (Molecules, 2024).

This series can be described thus: Spectrophotometric magnesium complexation. The note with it: EtOH:dioxane:water = 1:1:1, MgCl2 = 10^−3 M.

SMILES strings stand for the structures.

In the case of `COC(=O)C1=C(C)N=C2SC(=NNc3ccccc3C(=O)OC)C(=O)N2C1c1ccc(OC)cc1` (centres unmarked) [Compound 12b, Methyl 2-(2-(2-(methoxycarbonyl)phenyl)hydrazineylidene)-5-(4-methoxyphenyl)-7-methyl-3-oxo-2,3-dihydro-5H-thiazolo[3,2-a]pyrimidine-6-carboxylate], the “UV absorbance change upon addition of magnesium ions” value is recorded as “the absorbance of the solution increased around the wavelength range of 400–450 nm”. Turning to `COC(=O)C1=C(C)N=C2SC(=NNc3ccccc3C(C)=O)C(=O)N2C1c1ccc(OC)cc1` (centres unmarked) [Compound 12a, Methyl 2-(2-(2-acetylphenyl)hydrazineylidene)-5-(4-methoxyphenyl)-7-methyl-3-oxo-2,3-dihydro-5H-thiazolo[3,2-a]pyrimidine-6-carboxylate], the “UV absorbance change upon addition of magnesium ions” value is listed as “the absorbance of the solution increased around the wavelength range of 400–450 nm”.
